Results of unrelated studies side by side (data: NIAID ChemDB).

All rows: growth or infection tests; species: Respiratory syncytial virus; read by: cytopathic effect; endpoint: EC50

An empty or dashed field is not shown.

smiles	cells	strain	value
C=C(C)n1c(=O)n(Cc2nc3ccccc3n2CCC(=N)N=[N+]=[N-])c2ccccc21	HEP-2	Long (subtype A)	0.008 µM
N#Cc1nc[nH]c1C(N)=O	HeLa	LONG	>500 µg/mL
NC(=O)c1[nH]nc([C@@H]2O[C@H](CO)[C@@H](O)[C@H]2O)c1O	HeLa	A2	0.04 µg/mL
c1ccc2c(c1)CSSC2	HeLa	clone 6 (RD3-0028-resistant)	>244.4 µM
CC(C)CCn1c(Cn2c(=O)n(CCCS(=O)(=O)O)c3ccccc32)nc2ccccc21	HEP-2	Long (subtype A)	0.04 µM
C#Cc1c(C(N)=O)ncn1[C@@H]1O[C@H](CO)[C@@H](O)[C@H]1O	HeLa	-	0.2 µg/mL
C/C=C1\[C@H](OC2O[C@H](CO)[C@@H](O)[C@H](O)[C@H]2O)OC=C(C(=O)O)[C@H]1CC(=O)OCCc1ccc(O)cc1	HEP-2	LONG	>150 µM
C[C@H](O)[C@@H]1C[C@H](CCn2nnc3c(N)ncnc32)C1(C)C	HeLa	-	>200 µg/mL
O=c1cc(-c2ccc(Oc3c(O)cc4oc(-c5ccc(O)cc5)cc(=O)c4c3O)cc2)oc2cc(O)cc(O)c12	MA-104	UTAH 89	>3.2 µg/mL
CC1(C)[C@H](CO)C[C@@H]1Cn1nnc2c(N)nc(N)nc21	HeLa	-	>400 µg/mL
Nc1ccc(S(=O)(=O)O)c2cc(S(=O)(=O)O)cc(O)c12	HeLa	-	>200 µM
NC(=O)c1ncn([C@@H]2O[C@H](CO)[C@@H](O)[C@H]2O)n1	HeLa	-	2 µg/mL
Nc1ncnc2c1ncn2C[C@@H](CO)OCP(=O)(O)O	-	-	>50 µM
[N-]=C=Nc1nncs1	HEP-2	-	7.8 µg/mL
C/C=C1\[C@H](OC2O[C@H](CO)[C@@H](O)[C@H](O)[C@H]2O)OC=C(C(=O)OC)[C@H]1CC(=O)OC	HEP-2	LONG	83.3 µM
Nc1ccc(S(=O)(=O)O)c2ccccc12	HeLa	-	>200 µM
NC12CC3CC(CC(C3)C1)C2	HeLa	LONG	72 µg/mL
Nc1ncnc2c1ncn2CCOCP(=O)(O)O	-	-	>185 µM
CC(C)CCn1c(Cn2c(=O)n(Cc3ccc(C(=O)N[C@@H](CP(=O)(O)O)C(=O)O)cc3)c3ccccc32)nc2ccccc21	HEP-2	Long (subtype A)	0.03 µM
CCC1[C@H](OC2O[C@H](CO)[C@@H](O)[C@H](O)[C@H]2O)OC=C(C(=O)O)[C@H]1CC(=O)OCCc1ccc(O)cc1	HEP-2	LONG	>150 µM
Nc1ccc(S(=O)(=O)O)c2cccc(S(=O)(=O)O)c12	HeLa	-	>200 µM
NC(=O)c1ncn([C@@H]2O[C@H](CO)[C@@H](O)[C@H]2O)n1	HeLa	-	8 µg/mL
Nc1cc2[nH]cnc2c(=O)[nH]1	HeLa	LONG	2.23 µg/mL
CC1(C)[C@H](CO)C[C@@H]1Cn1cnc2c(=O)[nH]c(N)nc21	HeLa	-	200 µg/mL
NC(=O)c1[nH]nc([C@@H]2O[C@H](CO)[C@@H](O)[C@H]2O)c1O	HeLa	58-17	0.08 µg/mL
NC(=O)c1ncn([C@@H]2O[C@H](CO)[C@@H](O)[C@H]2O)n1	HeLa	LONG	4 µg/mL
COc1cc(-c2oc3cc(O)cc(O)c3c(=O)c2O)ccc1O	HeLa	LONG	>4 µg/mL
Nc1cc(OCCOCP(=O)(O)O)nc(N)n1	-	-	>190 µM
O=C1C=CN([C@@H]2O[C@H](CO)[C@@H](O)[C@H]2O)C(=O)C1	HeLa	LONG	>500 µg/mL
CC(C)CCn1c(Cn2c(=O)n(CCCCCN=[N+]=[N-])c3ccccc32)nc2ccccc21	HEP-2	Long (subtype A)	0.01 µM

Repeating the first 4 entries:

smiles	cells	strain	value
C=C(C)n1c(=O)n(Cc2nc3ccccc3n2CCC(=N)N=[N+]=[N-])c2ccccc21	HEP-2	Long (subtype A)	0.008 µM
N#Cc1nc[nH]c1C(N)=O	HeLa	LONG	>500 µg/mL
NC(=O)c1[nH]nc([C@@H]2O[C@H](CO)[C@@H](O)[C@H]2O)c1O	HeLa	A2	0.04 µg/mL
c1ccc2c(c1)CSSC2	HeLa	clone 6 (RD3-0028-resistant)	>244.4 µM

ECn is the concentration giving n% inhibition of infection, replication or growth. Lines come from different laboratories, so protocols vary.